Experimental data: PubChem BioAssay AID504761 (Drosophila RNAi Screening Center, 2011)
Aim: 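Insect host genes that dengue virus relies on to spread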 (primary screen). System: D.Mel-2 cells from Drosophila. Reagent: long dsRNA against Drosophila genes. Treatment: infection with dengue virus type 2; dose and infection time not stated. Read-out: 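Cells stained for dengue envelope protein and imaged; percent of infected cells per well on duplicate plates, ranked by infection, with stained nuclei counted for cell number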. Reading the numbers: infection score: higher = more virus-infected cells. Hit rule: 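Low infection ranks in the two replicates (chance level up to 0.065) followed by a retest with a 1.5-fold or larger significant decrease, p below 0.05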. Meaning of the calls: active = confirmed: knock-down lowers infection; inactive = not picked or not confirmed.
The screen tested about 22,000 reagents; shown is an unselected part of those that have a named target and a result. In the full data, 116 (0.52%) got an active call. 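Calls depend on retest data that are not deposited; infection was ranked per plate without normalising between plates; the unit of the infection score is not given.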 Names joined by + are all predicted targets of the reagent. Further read-outs or replicates are left out here. The record does not give: the amount of reagent, the time to read-out.

Against Snx6 [DRSC03081], the entry reads infection score, replicate 1 = 9.43; inactive.
With knock-down of Snx6 [DRSC29702], the screen gave infection score, replicate 1 = 9.15; inactive.
Silencing of CG11151 [DRSC19387] gave: infection score, replicate 1 = 1.15; inactive.
For Argk1 [DRSC09668] the deposit lists infection score, replicate 1 = 1.84; inactive.
After knock-down of Argk1 [DRSC10460], the screen gave infection score, replicate 1 = 15.6; inactive.
After knock-down of Argk1 [DRSC21558] the results were infection score, replicate 1 = 3.95; inactive.
Argk1 [DRSC22665] showed infection score, replicate 1 = 3.73; inactive.
Against CG5078 [DRSC11762] the deposit lists infection score, replicate 1 = 1.78; inactive.
Cyp4d14 [DRSC18457] showed infection score, replicate 1 = 2.36; inactive.
For Cyp4d14 [DRSC24460], the entry reads infection score, replicate 1 = 2.2; inactive.
Rpi [DRSC04583] scored infection score, replicate 1 = 3.92; inactive.

Ordered by “infection score, replicate 1” (highest first): 3 of the entries above.
Argk1 [DRSC10460] → infection score, replicate 1 = 15.6; call = inactive
Argk1 [DRSC21558] → infection score, replicate 1 = 3.95; call = inactive
Argk1 [DRSC09668] → infection score, replicate 1 = 1.84; call = inactive

The listing continues:
After knock-down of AsnS [DRSC11468], the record shows infection score, replicate 1 = 3.74; inactive.
For Trpml + CG42638 [DRSC11032] the deposit lists infection score, replicate 1 = 6.26; inactive.
After knock-down of CG3631 [DRSC15503], the record shows infection score, replicate 1 = 5.25; inactive.
Silencing of CG3631 [DRSC29768] resulted in: infection score, replicate 1 = 5.07; inactive.
Cyp318a1 [DRSC19784] showed infection score, replicate 1 = 1.5; inactive.
Zmynd10 [DRSC09826] scored infection score, replicate 1 = 0.69; inactive.
For Zmynd10 [DRSC28996], the entry reads infection score, replicate 1 = 20.5; inactive.
Against Ostgamma [DRSC03074], the values are infection score, replicate 1 = 3.68; inactive.
otu [DRSC18811] scored infection score, replicate 1 = 4.92; inactive.
Depletion of otu [DRSC27953] gave: infection score, replicate 1 = 16.2; inactive.
